Settings in all cases: both partners purified
The target in experiment [1] is H18-HA (A/flat-faced bat/Peru/033/2010) (Influenza A virus A/flat-faced …, UniProt U5N1D3, strain). As to the kind of experiment: SEC.
In experiment [2] the target is H17 HA ([…] stand-in A/little yellow-shouldered …, UniProt H6QM93, strain). As to the kind of experiment: SEC.
Experiment [3] addresses H17 HA (recombinant HA of the panel) ([…] stand-in A/little yellow-shouldered …, UniProt H6QM93, strain, biotinylated (in the BLI assay)).
Experiment [4] deals with H18 HA (recombinant HA of the panel) (Influenza A virus A/flat-faced …, UniProt U5N1D3, strain, biotinylated (in the BLI assay)).

B1: PN-SIA28 Fab (Fab, V domains shown)
VH: QVQLVESGGGVVQPGRSLRLSCAASGFPFSSYGMHWVRQAPGKGLEWVAGVSYDGSYKYYADSVKGRFTISRDSSKSTLYLQMNSLRPEDTAVYYCARPSAIFGIYIILNGLDVWGQGTTVTVSS
VL: EIVLTQSPSSVSASVGDRVTITCRATQGISSWLAWYQQKPGKPPKLLIFGASSLQSGVPSRFSGSGSGTDFTLTISSLQPEDFATYFCQQAHSFPLTFGGGTKVEIK
In the case of B1, the binding result in experiment [1] and in experiment [2] was “binds” in each case.

B2: PN-SIA28 Fab (Fab, V domains shown)
VH: B1 VH
VL: B1 VL
notes: also called PN-SIA28 Fab fragment
Regarding B2, the binding result in experiment [3] and in experiment [4] was “binds” throughout.
